Laboratory results: PubChem BioAssay AID624099 (ICCB-Longwood, 2012)

Test: 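Host factors E2 relies on to silence an HPV18 LCR reporter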 (primary screen)
Cell system: human C33A cervical carcinoma cells (HPV-negative) stably expressing BPV1 E2 and an HPV18 LCR luciferase reporter
Reagents: siRNA pool against human genes, 40 nM
Duration: 72 h
Measured: 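HPV18 LCR reporter light per well, converted to plate-wise z-scores that exclude control wells, and averaged over triplicate plates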
Direction: mean z-score and z-score: higher = stronger reporter signal, weaker E2 silencing
Rule for the call: 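Mean z ≥ 2 together with z ≥ 2 in two or more of the three replicates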
Shown is an unselected part of about 21,000 reagents. Of all reagents, 497 (2.4%) got an active call. 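Higher z means weaker E2 silencing; only reporter increases were scored, and knock-downs that hurt cell survival may mask genuine repressor factors.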 The numbers tell different reagents against one gene apart.

gene	reagent no.	mean z-score	z-score, replicate A	z-score, replicate B	z-score, replicate C	outcome
DCT	1	0.54	0.56	0.56	0.51	inactive
STT3A	1	-0.25	-0.07	-0.5	-0.18	inactive
MAG	1	-1.23	-1.05	-1.49	-1.14	inactive
PRRX1	1	-1.36	-1.69	-1.29	-1.1	inactive
GALNT1	1	-0.03	-0.04	-0.15	0.1	inactive
HNRNPA1P60	1	0.18	0.43	0.05	0.07	inactive
CETN1	1	-0.03	-0.4	-0.03	0.35	inactive
RASGEF1B	1	0.25	0.36	0.14	0.24	inactive
ANGPTL8	1	-1.72	-2.15	-1.62	-1.37	inactive
HTR1B	1	0.24	0.4	0.18	0.12	inactive
HOXD10	1	0	0.16	-0.19	0.03	inactive
ULK4	1	-0.06	0.33	-0.5	0	inactive
ULK4	2	0.4	0.57	0.18	0.46	inactive
LOC388643 (retired record)	1	1.92	2.08	2.04	1.63	inactive
RAPGEF6	1	-0.31	-0.27	-0.3	-0.36	inactive
LOC202775 (retired record)	1	-0.84	-1.02	-0.81	-0.69	inactive
MCCC1	1	-0.18	-0.12	-0.02	-0.41	inactive
ENSA	1	1.13	1.49	0.92	0.98	inactive
KRT34	1	1.6	1.96	1.44	1.39	inactive
ZNF646	1	1.12	1.03	1.24	1.08	inactive
CNDP1	1	1.98	2.29	1.8	1.84	inactive
ARHGEF7	1	-0.56	-0.63	-0.48	-0.57	inactive
ARMC9	1	0.43	0.66	0.99	-0.37	inactive
HTR1A	1	3.33	3.02	3.8	3.17	active
LINC00608	1	-0.73	-0.83	-0.71	-0.66	inactive
VPS29	1	-0.34	-0.33	-0.23	-0.46	inactive
NDUFS8	1	-1.32	-0.97	-1.47	-1.53	inactive
DOP1A	1	0.73	0.67	0.53	0.99	inactive
PRSS37	1	0.05	-0.05	0.23	-0.04	inactive
SLC1A2	1	0.16	0.27	0.02	0.19	inactive
U2AF2	1	-1.9	-2.2	-1.92	-1.58	inactive
CTC1	1	0.35	0.35	0.49	0.21	inactive
IFI27	1	-1.3	-1.36	-1.52	-1.02	inactive
RAN	1	-0.56	-0.53	-0.55	-0.61	inactive
FUT8	1	-0.09	-0.41	-0.25	0.4	inactive
RPUSD4	1	1.08	0.94	1.01	1.3	inactive
IDI2-AS1	1	2.24	2.72	1.86	2.13	active
CEP76	1	-0.65	-1.05	-0.75	-0.16	inactive
CCDC7	1	-0.08	0.06	-0.37	0.07	inactive
CCDC7	2	0.52	0.41	0.24	0.9	inactive
HAGH	1	-0.33	-0.65	-0.36	0.01	inactive
LOC388526 (retired record)	1	1.7	1.85	1.75	1.49	inactive
ZFYVE28	1	-0.01	-0.51	0.53	-0.05	inactive
CDKN2A	1	-0.67	-0.5	-0.76	-0.75	inactive
PGAM5	1	2.6	2.34	3.09	2.37	active
MXRA8	1	-0.19	0.12	-0.35	-0.34	inactive
ZEB1	1	-0.37	-0.27	-0.45	-0.38	inactive
SDCCAG8	1	-0.26	-0.36	-0.08	-0.35	inactive
MYH9	1	-0.32	-0.18	-0.42	-0.36	inactive
CST1	1	-1.48	-1.31	-1.52	-1.62	inactive
NPDC1	1	-0.25	-0.08	-0.07	-0.59	inactive
NDUFA1	1	-0.59	-0.49	-0.42	-0.86	inactive
LOC390427 (retired record)	1	-0.83	-0.76	-0.82	-0.91	inactive
CYLC1	1	1.49	1.26	1.87	1.34	inactive
EIF4E	1	1.4	1.52	1.41	1.28	inactive
AP2S1	1	0.77	0.84	0.53	0.93	inactive
TOM1	1	0.79	0.81	0.72	0.83	inactive
WEE1	1	-0.83	-0.93	-0.94	-0.62	inactive
MAZ	1	-0.33	-0.12	-0.24	-0.65	inactive
RBL2	1	0.08	0.02	0.43	-0.21	inactive
GPR149	1	-0.19	0.04	-0.52	-0.08	inactive
SECTM1	1	0.47	0.33	0.36	0.73	inactive
EDC3	1	-0.56	-0.28	-0.84	-0.54	inactive
RPL10P16	1	-5.72	-5.95	-5.58	-5.64	inactive
POLB	1	-1.43	-1.39	-1.33	-1.57	inactive
MIPEP	1	-0.97	-0.85	-1.09	-0.95	inactive
CNR1	1	0.74	0.72	0.95	0.53	inactive
OR5AC2	1	0.29	0.45	-0.05	0.46	inactive
SULT1C2	1	-0.08	0	-0.14	-0.1	inactive
FLJ46126 (retired record)	1	-1.09	-0.92	-1.23	-1.12	inactive
SPPL3	1	-0.86	-0.97	-0.59	-1.01	inactive
FLJ23865 (retired record)	1	1.66	1.87	1.92	1.19	inactive
RRP9	1	-1.08	-1.03	-1.14	-1.06	inactive

Hits (from the list above):
gene	reagent no.	mean z-score	z-score, replicate A	z-score, replicate B	z-score, replicate C	outcome
HTR1A	1	3.33	3.02	3.8	3.17	active
IDI2-AS1	1	2.24	2.72	1.86	2.13	active
PGAM5	1	2.6	2.34	3.09	2.37	active
